Reference: patent EP2021356B1, “HIV VACCINE” (priority 2006, dated 2007)
Where two headings read alike, the source gives them in different places.

Tested on: EL-4s3 cells
Details: mice immunised with Env67(2I) pulsed dendritic cells

## CC(C)[C@H](NC(=O)[C@H](CS)NC(=O)[C@H](C)NC(=O)[C@H](Cc1c[nH]cn1)NC(=O)[C@@H](NC(=O)[C@H](C)NC(=O)[C@H](Cc1c[nH]c2ccccc12)NC(=O)[C@@H](NC(=O)[C@@H](N)CC(N)=O)C(C)C)[C@@H](C)O)C(=O)O [Env 67(2V)]
  recognition by Env67(2I) specific splenocytes in cytotoxicity assay: recognize
Listed as I2V
  recognition by Env67(2I) specific splenocytes in cytotoxicity assay: equal percent specific lysis
